Compound potency records, mixed from different reports. Data source: NIAID ChemDB in PubChem.

Common to all: whole-cell or culture tests; species: Coxsackie virus; read-out: EC50

Conditions beyond the fields shown may differ between rows. ECn is the concentration giving n% inhibition of infection, replication or growth. Blank or dashed fields: not listed here.

compound	cells	strain or isolate	result
O=C1C=CN(COCCO)S(=O)(=O)N1COCCO	HeLa	TYPE B4	>400 µg/mL
O=c1[nH]c(=O)n([C@@H]2C[C@H](CO)C[C@H]2CO)cc1I	VERO	B4	>100 µg/mL
CC(=O)OCCOCN1C=C(C#N)C(N)=NS1(=O)=O	HeLa	TYPE B4	>400 µg/mL
COC1=C2C[C@@H](C)C[C@@H](OC)[C@@H](O)[C@H](C)/C=C(\C)[C@@H](OC(N)=O)[C@H](OC)/C=C\C=C(/C)C(=O)NC(=CC1=O)C2=O	VERO	3M (TYPE B3)	3.35 µM
OCCCCn1cc(Cn2ncc3c(SCc4ccccc4)ncnc32)nn1	HeLa	B4	>400 µg/mL
Nc1ncnc2c1ccn2[C@@H]1C[C@H](O)[C@@H](O)[C@H]1O	HeLa	B4	400 µg/mL
O=c1[nH]cnc2c1ncn2C1C[C@H](CO)[C@@H](CO)C1	VERO	B4	>100 µg/mL
O=c1[nH]cnc2c1cnn2Cc1cn(CCCCO)nn1	VERO	B4	>400 µg/mL
Cc1ccccc1NC(=O)c1cccc2[nH]c(-c3ccncc3)nc12	VERO	TYPE B3	2.23 µg/mL
CC(=O)OCCOCN1C=CC(=O)N(COCCO)S1(=O)=O	HeLa	TYPE B4	>400 µg/mL
CSc1ncnc2c1cnn2Cc1cn(CCCCO)nn1	HeLa	B4	>400 µg/mL
Cc1ccn2c(C(SCCc3ccccc3)SCCc3ccccc3)cnc2c1	VERO	TYPE B4	>1000 µM
CC1=CC(=O)N(c2ccccc2)S(=O)(=O)N1COCCO	HeLa	TYPE B4	>400 µg/mL
C=C[C@@](CO)(CCn1cnc2c(N)ncnc21)c1ccccc1	-	TYPE B3	>100 µg/mL
O=c1ccn([C@@H]2C[C@H](CO)C[C@H]2CO)c(=O)[nH]1	VERO	B4	>100 µg/mL
CCOC(=O)C1=CN(COCCO)S(=O)(=O)NC1=O	HeLa	TYPE B4	>400 µg/mL
Cc1ccn2c(C3SCCS3)cnc2c1	VERO	TYPE B4	>1000 µM
Cc1cn(Cc2cc([C@H](C)NC(=O)OC(C)(C)C)no2)c(=O)n(Cc2ccccc2)c1=O	-	TYPE B3	10.6 µM
CCOC(=O)/C=C\C=C\[C@H]1O[C@@H](n2ccc(=O)[nH]c2=O)[C@H](O)[C@@H]1O	HeLa	B4	≥200 µM
Cc1cccn2c(C3OCCO3)cnc12	HeLa	TYPE B4	>1000 µM

Again, the opening 3 rows:

compound,cells,strain or isolate,result
O=C1C=CN(COCCO)S(=O)(=O)N1COCCO,HeLa,TYPE B4,>400 µg/mL
O=c1[nH]c(=O)n([C@@H]2C[C@H](CO)C[C@H]2CO)cc1I,VERO,B4,>100 µg/mL
CC(=O)OCCOCN1C=C(C#N)C(N)=NS1(=O)=O,HeLa,TYPE B4,>400 µg/mL